How the values were obtained:
Magnaporthe grisea = test: Rice blast disease pot test (Test Example A); settings: for Rice blast disease pot test (control value): 250 ppm sprayed, 2.5 ml/pot, rice variety Sachikaze, degree of disease development 6 to 8 days after inoculation; for control value: Test Example A, rice blast disease pot test
[1] = tested on: Gray mold fungus (Botrytis cinerea); test: Gray mold anti-germ test (Test Example C); settings: for Gray mold anti-germ test (rate of inhibition): 50 ppm/well, Czapek-dox broth, 25°C for 3 days, absorbance 600 nm; for rate of inhibition: Test Example C, gray mold anti-germ test
[2] = tested on: Speckled leaf blotch fungus (Septoria tritici); test: Speckled leaf blotch anti-germ test (Test Example F); settings: for Speckled leaf blotch anti-germ test (rate of inhibition): 50 ppm/well, Czapek-dox broth, 25°C for 3 days, absorbance 600 nm; for rate of inhibition: Test Example F, speckled leaf blotch anti-germ test
[3] = tested on: Anthracnose fungus (Glomerella cingulata); test: Anthracnose anti-germ test (Test Example E); settings: for Anthracnose anti-germ test (rate of inhibition): 50 ppm/well, Czapek-dox broth, 25°C for 3 days, absorbance 600 nm; for rate of inhibition: Test Example E, anthracnose anti-germ test
[4] = tested on: Fusarium blight fungus (Fusarium graminearum); test: Fusarium blight anti-germ test (Test Example D); settings: for Fusarium blight anti-germ test (rate of inhibition): 50 ppm/well, Czapek-dox broth, 25°C for 3 days, absorbance 600 nm; for rate of inhibition: Test Example D, Fusarium blight anti-germ test
Botrytis cinerea = test: Tomato gray mold pot test (Test Example B); settings: for Tomato gray mold pot test (control value): 250 ppm sprayed, 2.5 ml/pot, tomato variety Oogata Fukuju, degree of disease development 2 to 3 days after inoculation; for control value: Test Example B, tomato gray mold pot test

SMILES	Rice blast disease pot test (control value) (Magnaporthe grisea)	Gray mold anti-germ test (rate of inhibition) [1]	Speckled leaf blotch anti-germ test (rate of inhibition) [2]	Anthracnose anti-germ test (rate of inhibition) [3]	Fusarium blight anti-germ test (rate of inhibition) [4]	Tomato gray mold pot test (control value) (Botrytis cinerea)	control value (Magnaporthe grisea)	rate of inhibition [1]	rate of inhibition [2]	rate of inhibition [3]	rate of inhibition [4]	control value (Botrytis cinerea)
CSCC1(C)N=C(n2cnc3c(C)c(C)ccc32)c2ccc(C)cc2O1 (stereo not drawn)	H (H represents a control value or rate of inhibition of larger than 50%)	H (H represents a control value or rate of inhibition of larger than 50%)	H (H represents a control value or rate of inhibition of larger than 50%)	H (H represents a control value or rate of inhibition of larger than 50%)	H (H represents a control value or rate of inhibition of larger than 50%)	H (H represents a control value or rate of inhibition of larger than 50%)						
Cc1ccc2c(C3=NC(C)(C)Oc4c3ccc(F)c4F)cnn2c1C	H (H represents a control value or rate of inhibition of larger than 50%)	H (H represents a control value or rate of inhibition of larger than 50%)	L (L represents a control value or rate of inhibition of 50% or less)	H (H represents a control value or rate of inhibition of larger than 50%)	H (H represents a control value or rate of inhibition of larger than 50%)	H (H represents a control value or rate of inhibition of larger than 50%)						
Cc1cccc2c1SC(C)(C)N=C2n1cnc2c(C)c(C)ccc21	H (H represents a control value or rate of inhibition of larger than 50%)	H (H represents a control value or rate of inhibition of larger than 50%)	H (H represents a control value or rate of inhibition of larger than 50%)	H (H represents a control value or rate of inhibition of larger than 50%)	H (H represents a control value or rate of inhibition of larger than 50%)	H (H represents a control value or rate of inhibition of larger than 50%)						
Cc1ccc2c(c1C)OC(C)(C)N=C2c1cnn2c(C)c(C)ccc12	L (L represents a control value or rate of inhibition of 50% or less)	H (H represents a control value or rate of inhibition of larger than 50%)	H (H represents a control value or rate of inhibition of larger than 50%)	H (H represents a control value or rate of inhibition of larger than 50%)	H (H represents a control value or rate of inhibition of larger than 50%)	H (H represents a control value or rate of inhibition of larger than 50%)						
CC1(C)N=C(n2cnc3c(F)c(F)ccc32)c2c(F)cccc2O1	L (L represents a control value or rate of inhibition of 50% or less)	L (L represents a control value or rate of inhibition of 50% or less)	L (L represents a control value or rate of inhibition of 50% or less)	L (L represents a control value or rate of inhibition of 50% or less)	L (L represents a control value or rate of inhibition of 50% or less)	L (L represents a control value or rate of inhibition of 50% or less)						
CCC(C)C1(C)N=C(n2cnc3c(C)c(C)ccc32)c2ccc(C)cc2O1 (stereo not drawn)	H (H represents a control value or rate of inhibition of larger than 50%)	H (H represents a control value or rate of inhibition of larger than 50%)	L (L represents a control value or rate of inhibition of 50% or less)	H (H represents a control value or rate of inhibition of larger than 50%)	H (H represents a control value or rate of inhibition of larger than 50%)	H (H represents a control value or rate of inhibition of larger than 50%)						
Cc1ccc2c(ncn2C2=NC(C)(C)Oc3cc(F)ccc32)c1C	H (H represents a control value or rate of inhibition of larger than 50%)	H (H represents a control value or rate of inhibition of larger than 50%)	L (L represents a control value or rate of inhibition of 50% or less)	H (H represents a control value or rate of inhibition of larger than 50%)	H (H represents a control value or rate of inhibition of larger than 50%)	H (H represents a control value or rate of inhibition of larger than 50%)						
CCC1(C)N=C(c2cnn3cc(C)ccc23)c2ccccc2O1 (stereo not drawn)							H (H represents a control value or rate of inhibition of larger than 50%)	H (H represents a control value or rate of inhibition of larger than 50%)	H (H represents a control value or rate of inhibition of larger than 50%)	H (H represents a control value or rate of inhibition of larger than 50%)	H (H represents a control value or rate of inhibition of larger than 50%)	H (H represents a control value or rate of inhibition of larger than 50%)
Cc1ccc2c(ncn2C2=NC(C)(C)Oc3c(Br)cccc32)c1C	L (L represents a control value or rate of inhibition of 50% or less)	H (H represents a control value or rate of inhibition of larger than 50%)	L (L represents a control value or rate of inhibition of 50% or less)	H (H represents a control value or rate of inhibition of larger than 50%)	H (H represents a control value or rate of inhibition of larger than 50%)	H (H represents a control value or rate of inhibition of larger than 50%)						
Cc1ccc2c(c1)OC(C)(C)N=C2n1cnc2c(Cl)cccc21	H (H represents a control value or rate of inhibition of larger than 50%)	H (H represents a control value or rate of inhibition of larger than 50%)	H (H represents a control value or rate of inhibition of larger than 50%)	H (H represents a control value or rate of inhibition of larger than 50%)	H (H represents a control value or rate of inhibition of larger than 50%)	H (H represents a control value or rate of inhibition of larger than 50%)						
COCC1(C)N=C(c2cnn3c(C)cccc23)c2ccccc2S1 (stereo not drawn)							H (H represents a control value or rate of inhibition of larger than 50%)	H (H represents a control value or rate of inhibition of larger than 50%)	H (H represents a control value or rate of inhibition of larger than 50%)	H (H represents a control value or rate of inhibition of larger than 50%)	H (H represents a control value or rate of inhibition of larger than 50%)	H (H represents a control value or rate of inhibition of larger than 50%)
COc1cccc2c1ncn2C1=NC(C)(C)Oc2c(F)cccc21	L (L represents a control value or rate of inhibition of 50% or less)	L (L represents a control value or rate of inhibition of 50% or less)	L (L represents a control value or rate of inhibition of 50% or less)	H (H represents a control value or rate of inhibition of larger than 50%)	L (L represents a control value or rate of inhibition of 50% or less)	L (L represents a control value or rate of inhibition of 50% or less)						
Cc1ccc2c(ncn2C2=NC(C)(C)Oc3cc(Cl)ccc32)c1C	L (L represents a control value or rate of inhibition of 50% or less)	H (H represents a control value or rate of inhibition of larger than 50%)	L (L represents a control value or rate of inhibition of 50% or less)	H (H represents a control value or rate of inhibition of larger than 50%)	H (H represents a control value or rate of inhibition of larger than 50%)	H (H represents a control value or rate of inhibition of larger than 50%)						
CCCC1(C)N=C(n2cnc3c(C)c(C)cnc32)c2ccccc2O1 (stereo not drawn)							H (H represents a control value or rate of inhibition of larger than 50%)	H (H represents a control value or rate of inhibition of larger than 50%)	H (H represents a control value or rate of inhibition of larger than 50%)	H (H represents a control value or rate of inhibition of larger than 50%)	H (H represents a control value or rate of inhibition of larger than 50%)	H (H represents a control value or rate of inhibition of larger than 50%)

— patent EP4821928A1, “BICYCLIC HETEROCYCLIC COMPOUND AND FUNGICIDE FOR AGRICULTURAL AND HORTICULTURAL USE CONTAINING SAME AS ACTIVE INGREDIENT” (dated 2026)
